Measured values from several laboratories, pooled; numbers as filed in NIAID ChemDB.

All rows: growth or infection tests; agent: Aspergillus fumigatus; endpoint: MIC80

Rows are shuffled and stem from different studies. A number after MIC or MFC names an inhibition level or a share of isolates. Blank or dashed fields: not listed here.

| structure | strain or isolate | read by | value |
|---|---|---|---|
| CCCCN(Cc1cn(Cc2cccc([N+](=O)[O-])c2)nn1)CC(O)(Cn1cncn1)c1ccc(F)cc1F | - | - | >64 µg/mL |
| CC(C)(C)C(=O)OC1CCN(CC(O)(Cn2cncn2)c2ccc(F)cc2F)CC1 | 0504656 | broth dilution | 9.474 µM |
| CCc1nn([C@H](C)[C@](O)(Cn2cncn2)c2ccc(F)cc2F)c2ccc(F)cc12 | ATCC 16424 | - | 16 µg/mL |
| N#Cc1ccc(/C=C/C(=O)OC2CCN(CC(O)(Cn3cncn3)c3ccc(F)cc3F)CC2)cc1 | 0504656 | broth dilution | 2.028 µM |
| Cc1ccc(/C=C2\SC(=O)N(CC(O)(Cn3nccn3)c3ccc(F)cc3F)C2=O)c(C)c1 | - | - | >100 µg/mL |
| COc1c(O)cc2oc3ccccc3c(=O)c2c1O | - | - | 16 µg/mL |
| C[C@@H]1[C@H](O)[C@@H](C)/C=C/C=C/C=C/C=C/C=C/C=C/C=C/[C@H](O[C@@H]2O[C@H](C)[C@@H](O)[C@H](N)[C@@H]2O)C[C@@H]2O[C@](O)(C[C@@H](O)C[C@@H](O)[C@H](O)CC[C@@H](O)C[C@@H](O)CC(=O)O[C@H]1C)C[C@H](O)[C@H]2C(=O)O | CBS 113.26 | turbidity / absorbance | 6 µg/mL |
| CC1(C)Oc2c(ccc3c(=O)c4c(O)cccc4oc23)C[C@@]1(C)O | - | - | >250 µg/mL |
| Clc1ccc(Cn2cc(Cn3ccnc3)c3cc(Br)ccc32)cc1 | AF980003 | - | >100 µg/mL |
| CCCC(C)(C)C(=O)OC1CCN(CC(O)(Cn2cncn2)c2ccc(F)cc2F)CC1 | 0504656 | broth dilution | 9.17 µM |
| C[C@@H](N1CCN(Cc2cn(Cc3ccc(Cl)cc3Cl)c3ccccc23)CC1)[C@](O)(Cn1cncn1)c1ccc(F)cc1F | ATCC 16424 | resazurin | 16 µg/mL |
| NC(=O)N/N=C/c1ccsc1/C=N/NC(N)=O | CBS 113.26 | turbidity / absorbance | >250 µg/mL |
| O=C(Cc1ccccc1)OC1CCN(CC(O)(Cn2cncn2)c2ccc(F)cc2F)CC1 | 0504656 | broth dilution | 2.192 µM |
| C[C@@H](n1cc2cc(Cl)ccc2n1)[C@](O)(Cn1cncn1)c1ccc(F)cc1F | ATCC 16424 | - | 0.25 µg/mL |
| CC(C)=CCc1c(O)cc2oc3ccc4c(c3c(=O)c2c1O)C=CC(C)(C)O4 | CBS 113.26 | - | >250 µg/mL |
| CN(CCOc1ccc(CC2SC(=O)N(CC(O)(Cn3nccn3)c3ccc(F)cc3F)C2=O)cc1)c1ccccn1 | - | - | >100 µg/mL |
| CCCCN(Cc1cn(Cc2ccccc2F)nn1)CC(O)(Cn1cncn1)c1ccc(F)cc1F | - | - | >64 µg/mL |
| NC(=S)N/N=C/c1ccsc1/C=N/NC(N)=S | CB 11326 | broth dilution | >250 µg/mL |
| C[C@@H](c1ncncc1F)[C@](O)(Cn1cncn1)c1ccc(F)cc1F | - | - | 2.86 µM |
| Cc1nn([C@H](C)[C@](O)(Cn2cncn2)c2ccc(F)cc2F)c2cccc(F)c12 | ATCC 16424 | - | 16 µg/mL |
| CN1CCN(c2n[nH]c(N3C(=O)CS[C@@H]3c3ccc4c(c3)OCO4)n2)CC1 | 153.9 | broth dilution | 3.12 µg/mL |
| Cc1c(Cn2ccnc2)c2ccccc2n1Cc1ccc(Cl)cc1 | AF980003 | - | 19 µg/mL |
| CC1(C)C=Cc2ccc3c(=O)c4c(O)cccc4oc3c2O1 | - | - | >250 µg/mL |
| C=CCn1cc(CN2CCN([C@H](C)[C@](O)(Cn3cncn3)c3ccc(F)cc3F)CC2)c2ccc(Cl)cc21 | ATCC 16424 | resazurin | 8 µg/mL |
| O=C(/C=C/c1cccc(F)c1)OC1CCN(CC(O)(Cn2cncn2)c2ccc(F)cc2F)CC1 | 0504656 | broth dilution | 2.057 µM |
| C[C@@H](N1CCN(Cc2cn(Cc3ccc(F)cc3F)c3c(F)cccc23)CC1)[C@](O)(Cn1cncn1)c1ccc(F)cc1F | ATCC 16424 | resazurin | 8 µg/mL |
| C[C@@H](n1cc2cc(F)ccc2n1)[C@](O)(Cn1cncn1)c1ccc(F)cc1F | ATCC 16424 | - | 0.25 µg/mL |
| C[C@@H](N1CCN(Cc2c[nH]c3ccccc23)CC1)[C@](O)(Cn1cncn1)c1ccc(F)cc1F | ATCC 16424 | resazurin | 64 µg/mL |
| CN(CCCCOc1ccccc1)CC(O)(Cn1cncn1)c1ccc(F)cc1F | - | - | >154 µM |
| COc1cc(O)c2c(=O)c3cccc(O)c3oc2c1 | CBS 113.26 | - | 31 µg/mL |
| O=C(/C=C/c1ccccc1)OC1CCN(CC(O)(Cn2cncn2)c2ccc(F)cc2F)CC1 | 0504656 | broth dilution | 0.534 µM |
| O=c1c2ccccc2oc2c(O)cccc12 | CBS 113.26 | - | 31 µg/mL |
| O=C1S/C(=C\c2ccc(Cl)cc2Cl)C(=O)N1CC(O)(Cn1nccn1)c1ccc(F)cc1F | - | - | >100 µg/mL |
| CCCCN(Cc1cn(Cc2c(Cl)cccc2Cl)nn1)CC(O)(Cn1cncn1)c1ccc(F)cc1F | - | - | >64 µg/mL |
| COc1c2c(c3oc4c(O)cccc4c(=O)c3c1O)C=CC(C)(C)O2 | CBS 113.26 | - | 8 µg/mL |
| CCCCN(Cc1cn(Cc2cccc(Br)c2)nn1)CC(O)(Cn1cncn1)c1ccc(F)cc1F | - | - | >64 µg/mL |
| OC(CN1CCCN(CCCOc2ccccc2)C1)(Cn1cncn1)c1ccc(F)cc1F | - | - | >140 µM |
| CCCCN(Cc1cn(Cc2cccc(Cl)c2)nn1)CC(O)(Cn1cncn1)c1ccc(F)cc1F | - | - | >64 µg/mL |
| CCCC(c1cn(Cc2ccc(Cl)cc2)c2ccccc12)n1ccnc1 | AF980003 | - | >100 µg/mL |
| O=C(/C=C/c1ccc(Cl)cc1)OC1CCN(CC(O)(Cn2cncn2)c2ccc(F)cc2F)CC1 | 0504656 | broth dilution | 1.991 µM |
| O=C1S/C(=C\c2ccccc2Br)C(=O)N1CC(O)(Cn1nccn1)c1ccc(F)cc1F | - | - | >100 µg/mL |
| CC(O)Cc1ccc(Cn2cc(CN3CCN([C@H](C)[C@](O)(Cn4cncn4)c4ccc(F)cc4F)CC3)c3ccccc32)cc1 | ATCC 16424 | resazurin | >128 µg/mL |
| ClCCl | - | - | 16 µg/mL |
| OC(CN1CCCN(CCCCOc2ccccc2)C1)(Cn1cncn1)c1ccc(F)cc1F | - | - | >136 µM |
| CC(C)=CCc1c2c(c3oc4c(O)cccc4c(=O)c3c1O)C=CC(C)(C)O2 | - | - | 125 µg/mL |
| C[C@@H](N1CCN(Cc2cn(Cc3ccc(F)cc3F)c3cc(N=[N+]=[N-])ccc23)CC1)[C@](O)(Cn1cncn1)c1ccc(F)cc1F | ATCC 16424 | resazurin | 4 µg/mL |
| CCCC(CC(=O)O)c1c(O)c2c(c3c1OC(C)(C)C=C3)O[C@@H](C)[C@H](C)C2=O | CBS 113.26 | - | 4 µg/mL |

The last 6 rows once more:

| structure | strain or isolate | read by | value |
|---|---|---|---|
| CC(O)Cc1ccc(Cn2cc(CN3CCN([C@H](C)[C@](O)(Cn4cncn4)c4ccc(F)cc4F)CC3)c3ccccc32)cc1 | ATCC 16424 | resazurin | >128 µg/mL |
| ClCCl | - | - | 16 µg/mL |
| OC(CN1CCCN(CCCCOc2ccccc2)C1)(Cn1cncn1)c1ccc(F)cc1F | - | - | >136 µM |
| CC(C)=CCc1c2c(c3oc4c(O)cccc4c(=O)c3c1O)C=CC(C)(C)O2 | - | - | 125 µg/mL |
| C[C@@H](N1CCN(Cc2cn(Cc3ccc(F)cc3F)c3cc(N=[N+]=[N-])ccc23)CC1)[C@](O)(Cn1cncn1)c1ccc(F)cc1F | ATCC 16424 | resazurin | 4 µg/mL |
| CCCC(CC(=O)O)c1c(O)c2c(c3c1OC(C)(C)C=C3)O[C@@H](C)[C@H](C)C2=O | CBS 113.26 | - | 4 µg/mL |